Test results from patent publication US20030039697A1, “Matrices containing nitric oxide donors and reducing agents and their use” (priority 2002, published 2003).
Some compounds may have been tested in ways that are not shown here.

How the values were obtained:
[1] = test system: E. coli; experiment: Bacterial growth on agar containing SNP, count at 24 hours; settings: 24 hours culture
Protocol: (§1) Bacterial growth on agar: 4 grams TSA was dissolved in distilled water, and autoclaved at 121° C. for 15 minutes. When the agar cooled to 50° C., 15 ml agar was placed into each tube, and equal amounts of bacteria were added to each. Then the agar and bacteria mixture was cast on culture dishes. The dishes were placed into an incubator @ 37° C. The clone number was counted at 24 hours.
(§2) Nitric oxide release from SNP inhibits bacterial growth on agar. Agar containing different concentrations of SNP was used to test the effects of NO release from SNP on bacteria growth. Both S. aureus and E. coli were tested. After 24 hours culture, bacteria number were counted. No bacteria were found in the dishes containing 5% and 10% SNP. Bacterial numbers in dishes of control and 1% SNP were counted. […] The results also support the use of matrices that are less hydrophobic than silicone.

[2] = test system: S. aureus; experiment: as above; settings: 24 hours culture
Protocol: as §1, §2

[3] = test system: E. coli; settings: silicone coating with NO donor and 1% AA as reducing agent; TSB, 37° C., 12-hour period

Sodium nitroprusside
E. coli growth on agar ([1]; 1% SNP in agar): inhibits both strains of bacteria, significantly
E. coli growth on agar ([1]; 5% SNP in agar): kill S. aureus and E. coli completely
E. coli growth on agar ([1]; 10% SNP in agar): kill S. aureus and E. coli completely
S. aureus growth on agar ([2]; 1% SNP in agar): inhibits both strains of bacteria, significantly
S. aureus growth on agar ([2]; 5% SNP in agar): kill S. aureus and E. coli completely
S. aureus growth on agar ([2]; 10% SNP in agar): kill S. aureus and E. coli completely
growth of bacteria (E. coli) with coated catheter segments [3]: inhibits growth of bacteria
